The values below come from patent KR20200072008A (dated 2020).

The target of this assay is SNAP25 197 from lysate of BoNT/A treated N2-42F cells (mouse, UniProt P60879 1-197). The experiment in a line: sandwich ELISA; 400 ng capture IgG per well; […] C16 IgG-HRP detection.

B1: B4 (antibody, V domains shown)
VH: EVKLVESGGGLVKPGGSLKLSCAASGFTFSNYGMSWVRQTPEKRLEWVATISSGGSYTYYPDSVKGRFTISRDNAKNTLYLQMSSLRSEDTAMYYCARHEGGGNPYFDYWGQGTTLTVSS
VL: DVLMTQTPLSLPVSLGDQASISCRSSQSLVHSNGNTYLHWYLQKPGQSPKLLIYKVSNRFSGVPDRFSGSGSGTDFTLKISRVEAEDLGVYFCSQNTLVPWTFGGGTKLEIK
As for B1, the binding result is “binds”.
